Source: ChEMBL document CHEMBL3988442, “University of Dundee, Small-Polar-MMV Screening Library” (2021).

Results are given as percent effect.
The record does not define 0% and 100%; most values in the screen are far below 50% and negative numbers occur (in some assays of this library far below -100).
Many other results are left out here, so strong results are more common than in the screen.
Two or more numbers in one place are separate tests of the same structure; such repeats can differ widely.

Mtb glucose medium: 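Phenotypic screen: M. tuberculosis growth, glucose 7H9 medium, 3 days; the read-out is not stated. Concentration: 50 µM. Direction is inferred from retests: higher values go with more growth inhibition. Of about 69,000 compounds tested this way, about 760 (1.1%) reached 50% or more in at least one test.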
Mtb cholesterol medium: 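Growth of Mycobacterium tuberculosis over 4 days (cholesterol / DPPC medium with tyloxapol); the read-out is not stated. Compounds at 50 µM. Higher reads as more growth inhibition (inferred: compounds with an IC50 in retests scored well above the rest). Of about 69,000 compounds tested this way, about 370 (0.54%) reached 50% or more in at least one test.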

Result for O=C(CSc1nncs1)N1CCN(Cc2ccc(Cl)cc2)CC1 was Mtb cholesterol medium: 5.646%.
Result for O=C(NCc1ccccn1)N1CC=C(c2ccccc2)CC1 was Mtb glucose medium: 16.27%; Mtb cholesterol medium: -16.1%.
Result for O=C(NCc1ccccc1)N1CCC(Oc2ncccc2Br)CC1 was Mtb glucose medium: 17.01%; Mtb cholesterol medium: 12.1%.
Result for Cc1nc2cc(=O)[nH]n2c(C)c1CC(=O)NCCCc1ccccc1 was Mtb glucose medium: -13.82%.
Result for COCc1ncc(CN2CCC(Oc3ccccc3OC)CC2)cn1 was Mtb glucose medium: -32.68%.
Result for O=C(c1cc2c([nH]c1=O)CCC2)N1CCCC1c1ccc(F)cc1 (centres undefined) was Mtb cholesterol medium: 4.406%.
Result for Cc1cccc(OCC(O)CNCc2c(C)nn(C)c2N(C)C)c1 (centres undefined) was Mtb glucose medium: -8.119%.
Result for Cc1cccc(OCCSCCn2nc3ccccn3c2=O)c1 was Mtb cholesterol medium: -17.54%.
Result for COCCC(=O)N1CCc2cc(Cl)cc(Cl)c2C1 was Mtb glucose medium: 55.21%.
Result for Cl.Clc1ccccc1CN1CCc2nc(C3CCNCC3)ncc2C1 was Mtb glucose medium: 65.83%.
Result for O=C(C1CC(=O)N(c2ccccc2Br)C1)N1CCCCCC1 (centres undefined) was Mtb glucose medium: 6.776%; Mtb cholesterol medium: -27.47%.
Result for CN(C)c1ccc(CC(=O)N2C[C@H](C3CC3)[C@@H](N)C2)cc1 was Mtb glucose medium: -2.606% and 12.36%; Mtb cholesterol medium: -11.08%.
Result for Cc1ccc(Oc2c(F)cccc2OC[C@@H](N)CC(C)C)cc1 was Mtb glucose medium: 87.35%; Mtb cholesterol medium: 74.14%.
Result for CCCN(CCC)C(=O)Cn1c(SC)nc2ccsc2c1=O was Mtb glucose medium: -2.918%.
Result for O=C(O)C(F)(F)F.O=C(O)C(F)(F)F.O=C(O)C(F)(F)F.[H][C@]12C[C@@H](Cn3cccn3)N(C(C)C)[C@@]1([H])CCN(Cc1ccoc1)C2 was Mtb glucose medium: 12.98% and 6.59%.
Result for Cc1c(CS(C)(=O)=O)cccc1NCCCC1CCCC1 was Mtb glucose medium: 9.34% and 26.43%.
Result for Cc1cccc(CSc2nnc(C)n2CC(N)=O)c1 was Mtb glucose medium: 6.71%.
Result for Cn1ccnc1CN1CCN(CC(O)c2cccc(F)c2)CC1 (centres undefined) was Mtb glucose medium: -2.474%.
Result for CCOc1cccc2c1OCC(C(=O)NS(=O)(=O)c1ccc(C)s1)=C2 was Mtb glucose medium: 8.559%.
Result for CC(O)c1cccc(Nc2nc(NCCO)c3ccccc3n2)c1 (centres undefined) was Mtb glucose medium: 18.77%; Mtb cholesterol medium: 18.67%.
Result for CC(C)(C)Cc1nnc(NCc2cccc(C#N)c2)o1 was Mtb glucose medium: -28.52%.
Result for COc1cc(CNC(=O)c2csc(Br)c2)ccn1 was Mtb glucose medium: 28.48%.
Result for CCc1nc(-c2cccc(C(=O)O)c2)no1 was Mtb glucose medium: -22.37%; Mtb cholesterol medium: -19.7%.
Result for Cc1ccc(CNC(CN2CCN(C)CC2)c2ccccc2)cc1C (centres undefined) was Mtb glucose medium: 52.51%.
Result for CS(=O)(=O)NC1CCN(Cc2coc(-c3ccc(Cl)cc3)n2)CC1 was Mtb glucose medium: 15.44% and 4.527%.
Result for Br.Cc1ccc(OCCCSC2=NCCN2)cc1 was Mtb glucose medium: 20.82%.
Result for Cc1nnsc1C(=O)NCC1CCN(c2ccccn2)CC1 was Mtb glucose medium: -11.2%.
Result for COCCOCC(=O)Nc1ccc(C)cc1F was Mtb cholesterol medium: 3.862%.

For reference, 2 entries once more:

{"smiles": "Cc1c(CS(C)(=O)=O)cccc1NCCCC1CCCC1", "Mtb glucose medium": "9.34 and 26.43"}
{"smiles": "Br.Cc1ccc(OCCCSC2=NCCN2)cc1", "Mtb glucose medium": 20.82}